A mixed list of measured activities; the numbers were collected in NIAID ChemDB.

Common to all: tests in culture; species: Hepatitis C virus; endpoint: EC50

An empty or dashed field is not shown.

smiles | strain | cell line | read by | value
Cn1c(C(=O)O)cc2cc(NC(=O)C3(NC(=O)c4ccc5c(C6CCCCC6)c6n(c5c4)CC(=O)Nc4ccccc4-6)CCCC3)ccc21 | - | Huh7 | replicon | 0.01–1 µM
CCN(C)c1cc2oc(-c3ccc(F)cc3)c(C(=O)NC)c2c(Cl)c1OC | - | Huh7 | replicon | <10 µM
CC1CCC(C(=O)N(c2cc(-c3ccc(NC(=O)c4cscn4)cc3)sc2C(=O)O)C2CCC2)CC1 | 1b | - | replicon | <0.5 µM
CCC(=O)Nc1ccc(-c2ccc3nc(N)nc(NCCOC)c3n2)cc1 | - | Huh7 | replicon | <0.3 µM
COc1ccc(OCCCCCOc2cccc(NC(N)=S)c2)c2ccccc12 | - | Ava5-EG(delta4AB)SEAP | reporter gene / fluorescence | 0.001–1 µM
CCOc1nc(NCc2ccc(F)c(Cl)c2)nc2ccc(-c3ccc(F)cc3)nc12 | - | - | replicon | <0.1 µM
NC(=S)Nc1cccc(OCCCCCCCOc2ccccc2)c1 | - | Ava5-EG(delta4AB)SEAP | reporter gene / fluorescence | 0.001–1 µM
COC(=O)/C=C/c1ccc2nc(C3(NC(=O)c4ccc5c(C6CCCCC6)c6n(c5c4)CC(=O)Nc4ccccc4-6)CCCC3)[nH]c2c1 | - | Huh7 | replicon | 0.01–1 µM
CNC(=O)c1c(-c2ccc(F)cc2)oc2cc(N(C)S(C)(=O)=O)c(OCC(=O)c3ccc(OC)cc3)cc12 | - | Huh7 | replicon | <1 µM
CC1CCC(C(=O)N(c2cc(-c3ccc(NC(=O)c4ncc[nH]4)cc3)sc2C(=O)O)C(C)C)CC1 | 1a | - | replicon | <0.5 µM
NC(=S)Nc1ccc2c(c1)Cc1cc(NCCCc3ccccc3)ccc1-2 | - | Ava5-EG(delta4AB)SEAP | reporter gene / fluorescence | 0.001–1 µM
NS(=O)(=O)c1ccc(CNc2nc(NCC(F)(F)F)c3nc(-c4ccc(F)c(Cl)c4)ccc3n2)cc1 | - | - | replicon | <0.1 µM
S=C(Nc1cccc(OCCCCCc2ccccc2)c1)N1CCN(CCCc2ccccc2)C1=S | - | Ava5-EG(delta4AB)SEAP | reporter gene / fluorescence | 0.001–1 µM
CCOc1nc(NCc2ccc(S(N)(=O)=O)cc2)nc2ccc(-c3ccc(C(N)=O)cc3)nc12 | - | - | replicon | <0.1 µM
CC1(C)CC(=O)C2=C(C1)Nc1c(O)cccc1NC2c1ccc(F)cc1F | 1b | - | luciferase / reporter gene / replicon | >100 µM
CC(C)N(C(=O)C1CCC(C(F)(F)F)CC1)c1cc(-c2ccc(NC(=O)c3cscn3)cc2)sc1C(=O)O | 1a | - | replicon | <0.5 µM
CNC(=O)c1c(-c2ccc(F)cc2)oc2cc(N(C)S(C)(=O)=O)c(OCc3cccc(OC)c3)cc12 | - | Huh7 | replicon | <1 µM
CCOc1nc(NCc2ccc(C(N)=O)cc2)nc2ccc(-c3ccc(F)cc3)nc12 | - | - | replicon | <0.1 µM
O=C(NS(=O)(=O)N1CCCC1)c1ccc2c(C3CCCCC3)c3n(c2c1)CC(C(=O)N1CCOCC1)=Cc1ccccc1-3 | - | Huh7 | replicon | 0.01–1 µM
CCOc1nc(NCc2c(F)cc(Cl)cc2F)nc2ccc(-c3ccc(F)cc3)nc12 | - | - | replicon | <0.1 µM
CNC(=O)c1c(-c2ccc(F)cc2)oc2cc(-c3cn[nH]c3C)c(OC(C)C)cc12 | - | Huh7 | replicon | <1 µM
CCOc1nc(NCc2ccc(F)cc2)nc2ccc(-c3ccc(C(=O)NC4CC4)cc3)nc12 | - | - | replicon | <0.1 µM
Cc1cnccc1NC(=O)CCC(=O)N1c2cccc(O)c2NC2=C(C(=O)CC(C)(C)C2)C1c1ccc(OCc2ccccc2)cc1Cl | 1b | - | luciferase / reporter gene / replicon | 5.52 µM
COC(=O)N[C@H](C(=O)N1CCCC1c1ncc(-c2ccc(-c3ccc(-c4cnc([C@@H]5CC(C)CN5C(=O)[C@@H](NC(=O)CO)C(C)C)[nH]4)cc3)cc2)[nH]1)C(C)C | 1b | ET | luciferase | 0.0000078 µM
CC1(C)CC(=O)C2=C(C1)Nc1c(O)cccc1NC2c1ccc(OCc2ccccc2)c(Cl)c1 | 1b | - | luciferase / reporter gene / replicon | 12.65 µM
Cc1cc(C(=O)Nc2ccc(-c3cc(N(C(=O)C4CCC(C)CC4)C(C)C)c(C(=O)O)s3)cc2)nn1C | 1a | - | replicon | <0.5 µM
CN(C)S(=O)NC(=O)c1ccc2c(C3CCCCC3)c3n(c2c1)CC(C(=O)N1CCOCC1)=Cc1ccccc1-3 | - | Huh7 | replicon | 1–10 µM
CCN(C(=O)COC)c1cc2oc(-c3ccc(F)cc3)c(C(=O)NC)c2c(Cl)c1OC | - | Huh7 | replicon | <10 µM
COCCNc1nc(N)nc2ccc(-c3ccc(NC(=O)C(C)C)cc3)nc12 | - | Huh7 | replicon | <0.3 µM
CC1(C)CC(=O)C2=C(C1)Nc1c(O)cccc1N(C(=O)CCC(=O)N1CCC(N3CCOCC3)CC1)[C@@H]2c1ccc(OCc2ccccc2)cc1Cl | 1b | - | luciferase / reporter gene / replicon | 25.88 µM
COC(=O)c1ccc2c(C3CCCCC3)c3n(c2c1)CC(C(=O)O)=Cc1ccccc1-3 | - | Huh7 | replicon | 0.01–1 µM
CC1(C)CC(=O)C2=C(C1)Nc1c(O)cccc1N(C(=O)CCc1nn[nH]n1)C2c1ccc(Cl)cc1Cl | 1b | - | luciferase / reporter gene / replicon | >100 µM
O=C(O)c1ccc2c(C3CCCCC3)c3c4ccccc4cc(C(=O)O)n3c2c1 | - | Huh7 | replicon | >10 µM
CNC(=O)c1c(-c2ccc(F)cc2)oc2cc(NC(C)C)c(OC(C)C)cc12 | - | Huh7 | replicon | <1 µM
O=C(O)c1ccc2c(C3CCCCC3)c3n(c2c1)CC(C(=O)N1CCC(O)CC1)Cc1ccccc1-3 | - | Huh7 | replicon | 0.01–1 µM
CCN(c1cc2oc(-c3ccc(F)cc3)c(C(=O)NC)c2cc1O)S(C)(=O)=O | - | Huh7 | replicon | <10 µM
Cc1cc(-c2cc(N(C(=O)C3CCC(C)CC3)C(C)C)c(C(=O)O)s2)cnc1NC(=O)c1ccc(F)cc1 | 1b | - | replicon | <0.5 µM
NC(=S)Nc1ccc2c(c1)Cc1cc(NC(N)=S)ccc1-2 | - | Ava5-EG(delta4AB)SEAP | reporter gene / fluorescence | 0.001–1 µM
O=C(O)c1ccc2c(C3CCCCC3)c3n(c2c1)CC(C(=O)N1CCN(c2ccncc2)CC1)Cc1ccccc1-3 | - | Huh7 | replicon | 0.01–1 µM
NS(=O)(=O)c1ccc(CNc2nc(NCC(F)(F)F)c3nc(-c4ccc(NC(=O)OCCN5CCCC5)cc4)ccc3n2)cc1 | - | - | replicon | <0.1 µM

a–b is a range or a potency band. ECn is the concentration giving n% inhibition of infection, replication or growth. Neighbouring rows are from separate reports.